Holding throughout (experiment): pseudovirus neutralization IC50; higher = weaker neutralization
In assay [1] the target is SARS-CoV-2 Omicron BA.1 spike pseudovirus. The procedure: (§1)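 Single-round VSV luciferase pseudovirus mixed with antibody dilutions for 1 h and put on Huh-7 cells for about a day; IC50 from the dose curve.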
Assay [2] has as its target SARS-CoV-2 Omicron BA.2 spike pseudovirus. The procedure: as §1
Assay [3] concerns the target SARS-CoV-2 Omicron BA.2.75 spike pseudovirus. On the procedure:
as §1

Assay [4] deals with SARS-CoV-2 Omicron BA.5 spike pseudovirus. The procedure:
as §1

The target of assay [5] is SARS-CoV-2 Omicron BQ.1.1 spike pseudovirus. On the procedure:
as §1

Assay [6] concerns the target SARS-CoV-2 Omicron XBB spike pseudovirus. The procedure: as §1
Assay [7] concerns the target SARS-CoV-2 early D614G spike pseudovirus. On the procedure: as §1

The text below walks through data of the supplement of paper PMC9931576.

Human monoclonal antibodies against the spike receptor-binding domain (heavy:light variable regions). IC50 against pseudoviruses bearing the spike of naturally observed variants; lower = stronger; >10 µg/ml means not reached at the top dose. No active / inactive call. The stated detection limit is 0.0005 µg/ml; values near or below 0.001 µg/ml lie at the floor of the assay. Some results are limits rather than exact numbers.

B1: XGv-265 (protein)
chain 1: QITLKESGPTLVKPTQTLTLTCNFSGFSLNTYGVGVGWIRQPPGKALEWLALIYWDGDERYGPFFKNKVTIAKDTSKNQVVLTMTNMDPVDTATYYCARHLIPTIFDYWGQGTLVTVSS
chain 2: QSALTQPASVSGSPGQSITISCTGTSSDVGGSNYVSWYQHHPDRAPKLLIYEVTNRPSGVSNRFSGSKSANTASLTISGLQAEDEADYYCSSYTTTSTHILFGGGTKLTV
As to B1, the “pseudovirus neutralization IC50” value in assay [1] is > 10 µg/mL; in assay [2], 0.0449 µg/mL; in assay [3] it was > 10 µg/mL; in assay [4], 0.0512 µg/mL; in assay [5], > 10 µg/mL; in assay [6] it was > 10 µg/mL. Also, the “pseudovirus neutralization IC50” value in assay [7] worked out at 0.0103 µg/mL.

B2: XGv-232 (protein)
chain 1: QVQLVQSGAEVKKPGSSVKVSCKASGGTFSRYAISWVRQAPGQGLEWMGRIIPIFSISNYAQKFQGRVTITADKSTSTAYMELSSLRSEDTAVYYCARGPYSYDSGSYQLDYWGQGTLVTVSS
chain 2: DIQMTQSPSSLSASVGDRVTITCRASQSISSYLNWYQQKPGKAPQLLIYAASSLQSGVPSRFSGSGSGSDFTLTISSLQPEDFATYYCQQSHSTPRTFGQGTKVEIK
As for B2, the “pseudovirus neutralization IC50” value in assay [1], in assay [2], in assay [3], in assay [4], in assay [5] and in assay [6] was > 10 µg/mL in each case. Besides, the “pseudovirus neutralization IC50” value in assay [7] was determined as 0.00107 µg/mL.

B3: XGv-252 (protein)
chain 1: EVQLVESGGGLVQPGGSLRLSCAASGFTFSTYDMHWVRQTTGKGLEWVSVIGTSGDTYYSDSVKGRFTISRENARHSLYLQMNSLRAGDTAVYYCARDSGTTVTVLDFWGQGTLVTVSS
chain 2: DIQMTQSPPSLSASVGDRVTITCRTSQSIRSYLNWFQQKPGKAPKLLIYAASNLQSGVPSRFSGSGSGTDFTLTISSLQPEDFATYYCQQSYSNPQITFGPGTKVDIK
With B3, the “pseudovirus neutralization IC50” value in assay [1] was 6.55 µg/mL; in assay [2], 4.82 µg/mL; in assay [3], 4.81 µg/mL; in assay [4], 5.19 µg/mL; in assay [5] it was 5.91 µg/mL; in assay [6], 4.38 µg/mL. The “pseudovirus neutralization IC50” value in assay [7] amounted to 2.86 µg/mL.

B4: XGv-264 (protein)
chain 1: QITLKESGPTLVKPTQTLTLTCAFSGFSLNTGGAGVGWIRQPPGKALEWLALIYWDGDKRYNPSLKSRLAIIMDTSKNRVVLTMTNMDPVDTATYYCAHHKIEYIFDYWGQGTLVAVSS
chain 2: QSALTQPASVSGSPGQSITVSCTGTSSDLGNFQYVSWYQHHPGKAPKLLIYEVSHRPSGVSNRFSGSKSGNTASLTISGLQAEDEADYYCCSYTTTTIPVAFGGGTRLTVL
On to B4, for which the “pseudovirus neutralization IC50” value in assay [1] is 0.00164 µg/mL; in assay [2], 0.0039 µg/mL; in assay [3], 0.00348 µg/mL; in assay [4], 0.00289 µg/mL; in assay [5], > 10 µg/mL; in assay [6], > 10 µg/mL. Moreover, the “pseudovirus neutralization IC50” value in assay [7] stood at 0.00167 µg/mL.

B5: XGv-266 (protein)
chain 1: QITLKESGPTLVRPTQTLTLTCTFSGLSLSAPAEGVGWIRQPPGKALEWLALIYWEGDQRYSPSLKSRLTITKDTSKKQVVLTMTNMDPVDTATYYCARHSVATIFDFWGQGTLVTVSS
chain 2: QSALTQPASVSGSPGQSITISCTGTSSDVGCCNYVSWYQHHPGKAPKLMIYEVTNRPSGISDRFSGSKSGNTASLTISGLQAEDEAAYYCSSYTTSTARVVFGGGTKLTVL
On to B5, for which the “pseudovirus neutralization IC50” value was > 10 µg/mL in assay [1]; 0.614 µg/mL in assay [2]; > 10 µg/mL in assay [3]; 0.882 µg/mL in assay [4]; > 10 µg/mL in assay [5]; > 10 µg/mL in assay [6]. Also, in assay [7], the “pseudovirus neutralization IC50” value amounted to 0.016 µg/mL.

B6: XGv-271 (protein)
chain 1: QVQLVQSGAEVKKPGSSVKVSCKASGGTFSSHPISWVRQAPGQGLEWMGRVIPIIGVTDYAQKFQGRVTFSADKSTSTAYMELSSLISEDTAVYYCARDRGYSGSGSSYYFDNWGQGSLVTVSS
chain 2: QSVLAQPPSVSGAPGQRVTISCTGSNSNIGAGYDVHWYQQLPGTAPKLLIYANNNRPSGVPDRFSGSKSDTSASLAITGLLAEDEAVYYCQSYDSGLINSGVFGGGTKLTVL
B6: the “pseudovirus neutralization IC50” value in assay [1], in assay [2], in assay [3], in assay [4], in assay [5] and in assay [6] was > 10 µg/mL throughout. Moreover, the “pseudovirus neutralization IC50” value in assay [7] was > 10 µg/mL.
